Reference: patent publication US10745365B2, “Luminogenic and fluorogenic compounds and methods to detect molecules or conditions” (Promega Corporation, priority 2005, dated 2020)

Sequences of proteins named here, by UniProt entry; tags and fusion partners are left off.
UniProt P08659, whole entry: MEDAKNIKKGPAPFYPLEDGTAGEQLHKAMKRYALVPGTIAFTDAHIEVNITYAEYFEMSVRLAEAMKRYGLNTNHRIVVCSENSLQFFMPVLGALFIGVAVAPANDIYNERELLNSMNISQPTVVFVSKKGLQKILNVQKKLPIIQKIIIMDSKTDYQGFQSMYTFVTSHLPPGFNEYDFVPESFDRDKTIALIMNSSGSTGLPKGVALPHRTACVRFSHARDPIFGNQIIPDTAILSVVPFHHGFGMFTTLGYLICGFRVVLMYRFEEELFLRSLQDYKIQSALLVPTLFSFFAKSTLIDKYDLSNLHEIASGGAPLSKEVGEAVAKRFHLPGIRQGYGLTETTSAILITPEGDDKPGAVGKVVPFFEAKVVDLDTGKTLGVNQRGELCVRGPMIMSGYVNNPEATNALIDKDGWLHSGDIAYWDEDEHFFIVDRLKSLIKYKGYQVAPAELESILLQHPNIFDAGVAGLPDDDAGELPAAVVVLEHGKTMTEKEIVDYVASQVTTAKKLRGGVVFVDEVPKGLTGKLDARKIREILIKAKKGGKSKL

Molecular target: QuantiLum Luciferase (firefly luciferase) (Photinus pyralis, UniProt P08659)
Assay: pH dependence of firefly luciferase signal with luciferin or 5′-fluoroluciferin
Assay type: biochemical
Design: purchased Promega Corporation El 70

Question: Which “Absolute Luminescence” value (pH 7.673, Tricine) does the source give for `O=C(O)[C@H]1CSC(c2nc3ccc(O)cc3s2)=N1` [luciferin, (4S)-4,5-dihydro-2-(6-hydroxybenzothiazolyl)-4-thiazolecarboxylic acid, reference compound] here?
Answer: 1,041,115 RLU

Question: What about the “Relative Luminescence (% of 8.3 Luciferin)” value (pH 7.673, Tricine) of the same compound?
Answer: 71%

Question: And the “Absolute Luminescence” value (pH 7.883, Tricine)?
Answer: 1,254,769 RLU

Question: And the “Relative Luminescence (% of 8.3 Luciferin)” value (pH 7.883, Tricine)?
Answer: 86%

Question: What about the “Absolute Luminescence” value (pH 8.100, Tricine) of the same compound?
Answer: 1,422,936 RLU

Question: What about the “Relative Luminescence (% of 8.3 Luciferin)” value (pH 8.100, Tricine) of the same compound?
Answer: 97%

Question: And the “Absolute Luminescence” value (pH 8.327, Tricine)?
Answer: 1,463,179 RLU

Question: What about the “Relative Luminescence (% of 8.3 Luciferin)” value (pH 8.327, Tricine) of the same compound?
Answer: 100%
